Assays:
Experiment in all cases: BLI
Details in all cases: both partners purified
[1] = target: HeV G native tetrameric stalk design (Hendra virus, strain unnamed (entry: …, UniProt O89343))
HeV G monomeric design = HeV G monomeric design (Hendra virus, strain unnamed (entry: …, UniProt O89343))
[2] = target: HeV G hexameric design (NiV hex G design transferred to HeV G) (Hendra virus, strain unnamed (entry: …, UniProt O89343))

Measured: binding result

B1: m102.4 monoclonal antibody (HeV G-specific antibody), human IgG1/kappa (antibody, V domains shown)
VH: EVQVIQSGADVKKPGSSVKVSCKSSGGTFSKYAINWVRQAPGQGLEWMGGIIPILGIANYAQKFQGRVTITTDESTSTAYMELSSLRSEDTAVYYCARGWGREQLAPHPSQYYYYYYGMDVWGQGTTVTVSS
VL: EIVMTQSPGTLSLAPGERATLSCWASQSVRNNYLAWYQQKPGQAPRLVIYNGSTRATGIPDRFSGSGSGTDFTLTISRLDPEDFAVYYCQQYGNSRRVTFGGGTKVEIK
binds: all assays above

— PMC7300195 (Frontiers in Immunology, 2020)
